Source: patent EP2450379B1 (Crucell Holland B.V., dated 2015)

What was measured:
Experiment in all cases: ELISA, IgG 5 µg/ml
[1] = target: recombinant HA, subtype H3 (A/Wyoming/3/2003(H3N2)) (influenza A virus A/Wyoming/3/2003 …)
[2] = target: recombinant HA, subtype H7 (A/Netherlands/219/03 (H7N7)) (influenza A virus A/Netherlands/219/03 …)
[3] = target: recombinant HA, subtype H9 (A/Hong Kong/1073/99 (H9N2)) (influenza A virus A/Hong Kong/1073/99 …)

| Binder | OD 492nm [1] | OD 492nm [2] | OD 492nm [3] |
| --- | --- | --- | --- |
| CR6328 (antibody, V domains shown, human IgG1) VH: EVQLVESGAEVKKPGSSVKVSCKASGHIFSGYAISWVRQAPGQGLEWMGGIIPIFGTTNYAQKFQGRVTITADQSTSTAYMDLSNLRSEDTAVYYCARVKDGYCTLTSCPVGWYFDLWGRGTLVTVSS VL: not shown | 0.07 OD 492nm | 0.16 OD 492nm | 2.38 OD 492nm |
| CR6307 (antibody, V domains shown, human IgG1) VH: QVQLVQSGGGLVKPGGSLRLSCAASGFTFSSYSMNWVRQAPGKGLEWVSSISSSSSYIYYVDSVKGRFTISRDNAKNSLYLQMNSLRAEDTAVYYCARGGGSYGAYEGFDYWGQGTLVTVSS VL: EIVLTQSPGTLSLSPGERATLSCRASQRVSSYLAWYQQKPGQAPRLLIYGASTRAAGIPDRFSGSGSGTDFTLTISRLEPEDSAVYYCQQYGRTPLTFGGGTKVEIKR | 0.11 OD 492nm | 0.22 OD 492nm | 0.17 OD 492nm |
| CR6334 (antibody, V domains shown, human IgG1) VH: EVQLVETGAEVKKPGSSVKVPCKSSGSPFRSNAVSWVRQAPGQGLEWVGGILGVFGSPSYAQKFQGRVTITADESTNTVHMELRGLRSEDTAVYYCARGPTYYYSYMDVWGKGTTVTVSS VL: SYVLTQPPSESVAPGQTARITCGGNNIGRNSVHWYQQKPGQAPVLVVYDDSDRPSGIPERFSGSKSGNTATLIISRVEVGDEADYYCQVWHSSSDHYVFGTGTKVTVLG | 0.07 OD 492nm | 0.15 OD 492nm | 1.82 OD 492nm |
| CR6343 (antibody, V domains shown, human IgG1) VH: QVQLVQSGAEVKKPGSSVKVSCKASGVTFSYYAMSWVRQAPGQGLEWMGGISPMFGTTTYAQKFQGRVTITADDSTSTAYMEVRSLRSEDTAVYYCARSSNYYDSVYDYWGQGTLVTVSS VL: QSVVTQPPSESVAPGQTARITCGGHNIGSNSVHWYQQKPGQAPVLVVYDNSDRPSGIPERFSGSNSGNTATLTISRVEAGDEADYYCQVWGSSSDHYVFGTGTKVTVLG | 0.07 OD 492nm | 0.15 OD 492nm | 1.88 OD 492nm |
| CR6329 (antibody, V domains shown, human IgG1) VH: EVQLVQSGAEVKKPGSSVKVSCKASGGIFRSNSISWVRQAPGQGLEWMGGIFALFGTTDYAQKFQGRVTITADESSTTVYLELSSLTSEDTAVYYCARGSGYTTRNYFDYWGQGTLVTVSS VL: EIVLTQSPGTLSLSPGERATLSCRASQSVSSNYLGWYQQKPGQAPRLLIYGASSRASGIPDRFSGGGSGTDFTLTISRLEPEDFAVYYCQQYGSSPLTFGGGTKVEIKR | 0.08 OD 492nm | 0.17 OD 492nm | 2.16 OD 492nm |
| CR6332 (antibody, V domains shown, human IgG1) VH: QVQLVQSGAEVKKPGSSVKVSCKASGGPFRNFAINWVRQAPGQGLEWMGGIIAVFGTTKYAHKFQGRVTITADDSTNTAYMELGSLKSEDTAVYYCARGPHYYSSYMDVWGEGTTVTVSS VL: DIQLTQSPSSLSASVGDRVTITCRASQGISTYLAWYQQKPGKVPKLLIYAASTLQSGVPSRFSGSGSGTDFTLTISSLQPEDVATYYCQKYNSAPSFGPGTKVDIKR | 0.15 OD 492nm | 0.26 OD 492nm | 2.11 OD 492nm |
| CR6342 (antibody, V domains shown, human IgG1) VH: QVQLVQSGAEVKKPGSSVKVSCKASGGFFSSYAISWVRQAPGQGLEWMGGVIPIFRTANYAQNFQGRVTITADEFTSYMELSSLRSDDTAVYYCARLNYHDSGTYYNAPRGWFDPWGQGTLVTVSS VL: DIQMTQSPDSLAVSLGEKATINCKSSQSILNSSNNKNYLAWYQQKPGQPPKLLIYWASTRESGVPDRFSGSGSGTDFTLTISSLQAEDVAVYYCQQYYSSPPTFGQGTKVEIKR | 0.09 OD 492nm | 0.17 OD 492nm | 2.13 OD 492nm |
| CR6268 (antibody, V domains shown, human IgG1) VH: QVQLVQSGAEVKKPGSSVKVSCKASGGTFSSYAISWVRQAPGQGLEWMGGIMGMFGTTNYAQKFQGRVTITADEFTSAAYMELRSLRSEDTAVYYCARSSGYYPEYFQDWGQGTLVTVSS VL: QSVLTQPPSESVSPGQTASVTCSGHKLGDKYVSWYQQKPGQSPVLLIYQDNRRPSGIPERFIGSNSGNTATLTISGTQALDEADYYCQAWDSSTAVFGGGTKLTVLG | 0.08 OD 492nm | 0.15 OD 492nm | 2.16 OD 492nm |
| CR6336 (antibody, V domains shown, human IgG1) VH: QMQLVQSGAEVKKPGSSVKVSCKASGGTFSSYAISWVRQAPGQGLEWMGGIFGMFGTANYAQKFQGRVTITADEFTSAAYMELSSLGSEDTAMYYCARSSGYYPQYFQDWGQGTLVTVSS VL: EIVMTQSPGTLSLSPGQRATLSCRASQSVSSSYLAWYQQKPGQAPRLLMYGASSRATGIPDRFSGSGSGTDFTLTISRLEPEDFAVYYCQQYGSSSLTFGGGTKLEIKR | 0.1 OD 492nm | 0.18 OD 492nm | 2.02 OD 492nm |
| CR6272 (antibody, V domains shown, human IgG1) VH: QMQLVQSGAEVKKPGSSVKVSCKASGGTFSSYAITWVRQAPGQGLEWMGGIIGMFGSTNYAQNFQGRVTITADESTSTAYMELSSLRSEDTAVYYCARSTGYYPAYLHHWGQGTLVTVSS VL: QSALTQPRSVSGSPGQSVTISCTGTSSDVGGYNYVSWYQQHPGKAPKLMIYDVSKRPSGVPDRFSGSKSGNTASLTISGLQAEDEADYYCSSYTSSSTHVFGTGTKVTVLG | 0.07 OD 492nm | 0.15 OD 492nm | 0.96 OD 492nm |
| CR6325 (antibody, V domains shown, human IgG1) VH: EVQLVESGAEVKKPGSSVKVSCKASGGTFSFYSMSWVRQAPGQGLEWMGGIIPMFGTTNYAQKFQGRVTITAVESTSTAYMEVSSLRSEDTAVYYCARGDKGIYYYYMDVWGKGTTVTVSS VL: QSALTQPASVSGSPGQSITISCTGTSSDVGGYNYVSWYQQHPGKAPKLMIYEVSNRPSGVSNRFSGSKSGNTASLTISGLQAEDEADYYCSSYTSSSTLVFGTGTKVTVLG | 0.07 OD 492nm | 0.17 OD 492nm | 2.04 OD 492nm |
| CR6323 (antibody, V domains shown, human IgG1) VH: EVQLVESGAEVKKPGSSVKVSCKASGGTFSSYGISWVRQAPGQGLEWMGDIIGMFGSTNYAQNFQGRLTITADESTSTAYMELSSLRSEDTAVYYCARSSGYYPAYLPHWGQGTLVTVSS VL: not shown | 0.07 OD 492nm | 0.15 OD 492nm | 2.27 OD 492nm |
| CR6257 (antibody, V domains shown, human IgG1) VH: QVQLVQSGAEVKKPGSSVKVSCKASGGPFRSYAISWVRQAPGQGPEWMGGIIPIFGTTKYAPKFQGRVTITADDFAGTVYMELSSLRSEDTAMYYCAKHMGYQVRETMDVWGKGTTVTVSS VL: QSALTQPAAVSGSPGQSITISCTGTSSDVGGYNYVSWYQQHPGKAPKLMIYEVSNRPSGVSNRFSGSKSGNTASLTISGLQAEDEADYYCSSYTSSSTYVFGTGTKVTVLG | 0.08 OD 492nm | 0.16 OD 492nm | 2.06 OD 492nm |
| CR6262 (antibody, V domains shown, human IgG1) VH: QVQLQQSGAEVKKPGSSVKVSCKVSGVIFSGSAISWVRQAPGQGLEWMGGISPLFGTTNYAQKFQGRVTITADQSTNTTYMEVNSLRYEDTAVYFCARGPKYYSEYMDVWGKGTTVTVSS VL: DIQMTQSPSSLSASVGDRVTITCRASQGISSYLAWYQQKPGKVPTLLIYDASTLRSGVPSRFSGSGSATDFTLTISSLQPEDVATYYCQRYNSAPPITFGQGTRLEIKR | 0.09 OD 492nm | 0.17 OD 492nm | 1.93 OD 492nm |
| CR6344 (antibody, V domains shown, human IgG1) VH: QVQLVQSGAEVKKPGSSVRVSCKASGSIFRNYAMSWVRQAPGQGLEWMGGIIAIFGTPKYAQKFQGRVTITADESTSTVYMELSGLRSEDTAMYYCARIPHYNFGSGSYFDYWGQGTLVTVSS VL: TVLTQPPSVSGAPGQRVTISCTGSSSNIGAGYDVHWYQQLPGTAPKLLIYGNSNRPSGVPDRFSGSKSGTSATLGITGLQTGDEADYYCGTWDSSLSAYVFGTGTKVTVLG | 0.09 OD 492nm | 0.18 OD 492nm | 2.15 OD 492nm |
